Measurements: paper PMC12658140

Target: H3 stem with T32HA2 (influenza A virus H3N2 A/Finland/486/2004)
Test: BLI

B1: AG2-G02 Fab (Fab, V domains shown)
VH: VQLVQSGAEMKKPGASVKVSCKASGYTFSAYYIHWVRQAPGQGLEWMGRINTDSGGTNFAQQFEGRVTMTRDTSISTAYMELSSLRSDDTAVYYCARGYDFWLGSYRAGGWFDPWGQGTLVTVSS
VL: [no letters for about 100 residues]GFTFGPGTKVDIK
- Kd: 0.57 nM
